The target in experiment [1] is L. infantum TR (Leishmania infantum, UniProt A4HSF7). Briefly: Luminescence-based (NADPH-Glo) TR enzymatic assay. As to conditions: read-out: TR assay IC50; n=3. The source says: (§1) L. infantum TR was cloned and purified as previously described.[9, 28] Bovine serum albumin (BSA), NADPH, auranofin, hGR, oxidized glutathione (GSSG) and DTNB were purchased from Sigma-Aldrich (St. Louis, MO); oxidized trypanothione (TS2) was purchased from Bachem (Bubendorf, Switzerland); the NADPH-Glo kit was purchased from Promega (Madison, WI, U.S.A.). Compounds, dissolved in DMSO, were transferred to 384-well white plates (Greiner Bio One, Frickenhausen, Germany) using the acoustic droplet ejection technology (ATS-100, EDC Biosystems, U.S.A.) to reach the desired final concentration. The TR enzymatic reaction was performed by addition of 0.1 nM TR, 12.5 μM NAPDH, 15 μM TS2 in 50 mM HEPES (pH 7.4), 40 mM NaCl, 0.01% BSA in a final volume of 15 μL. After 60 min of incubation at room temperature, an equal volume of NADPH-Glo reagent was added and the luminescent signal was acquired by an EnVision plate reader (PerkinElmer, Waltham, MA, U.S.A.). […] In addition, in order to make sure that the production of a reducing agent (i.e. T(SH)2) by the TR activity was not going to interfere with the assay, and in absence of T(SH)2 as purified reagent, the effect of DTT and GSH was tested on the NADPH-Glo reaction resulting in no interference at concentrations relevant for the current setup (S2 Fig). The hGR assay was performed by addition of 0.5 nM hGR, 10 μM GSSG, 20 μM NADPH in 50 mM HEPES (pH 7.4), 40 mM NaCl, 0.01% BSA in a final volume of 15 μL. After 30 min incubation at room temperature 15 μl of NADPH-Glo kit was added to reveal the signal. The 5,5′-dithiobis(2-nitrobenzoic acid) (DTNB) assay was performed using 2 nM TR, 100 μM NADPH, 4 μM TS2 and 200 μM DTNB in 40 mM HEPES (pH 7.4), 1 mM EDTA, 0.01% BSA and 0.05% tween-20 in a final volume of 50 μl. The absorbance signal (412 nm) was acquired 15 minutes post incubation at room temperature using the plate reader (Safire2, Tecan, Switzerland). Results were analyzed using Prism software (GraphPad, San Diego, CA, U.S.A.) and Vortex (Dotmatics, Bioshops Stortford, UK). Dose-response curves were fitted by four-parameter logistic regression.

By UniProt entry, the sequences of proteins in these tests, tags left out. Residues count along the entry.
UniProt A4HSF7, 1-491: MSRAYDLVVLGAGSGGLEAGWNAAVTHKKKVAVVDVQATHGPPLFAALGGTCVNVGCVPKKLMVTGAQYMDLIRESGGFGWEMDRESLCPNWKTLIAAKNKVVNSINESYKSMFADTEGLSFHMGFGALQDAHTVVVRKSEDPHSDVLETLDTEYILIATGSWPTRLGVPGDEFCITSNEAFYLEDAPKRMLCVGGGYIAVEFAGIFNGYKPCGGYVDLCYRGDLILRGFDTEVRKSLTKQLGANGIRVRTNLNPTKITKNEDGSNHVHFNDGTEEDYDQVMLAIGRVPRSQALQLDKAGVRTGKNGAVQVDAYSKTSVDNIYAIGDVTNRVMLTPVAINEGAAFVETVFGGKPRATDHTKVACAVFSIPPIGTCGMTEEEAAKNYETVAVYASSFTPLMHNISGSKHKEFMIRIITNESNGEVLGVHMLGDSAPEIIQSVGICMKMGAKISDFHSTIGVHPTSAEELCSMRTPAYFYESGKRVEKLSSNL
UniProt P00390, 44-522 limits assumed: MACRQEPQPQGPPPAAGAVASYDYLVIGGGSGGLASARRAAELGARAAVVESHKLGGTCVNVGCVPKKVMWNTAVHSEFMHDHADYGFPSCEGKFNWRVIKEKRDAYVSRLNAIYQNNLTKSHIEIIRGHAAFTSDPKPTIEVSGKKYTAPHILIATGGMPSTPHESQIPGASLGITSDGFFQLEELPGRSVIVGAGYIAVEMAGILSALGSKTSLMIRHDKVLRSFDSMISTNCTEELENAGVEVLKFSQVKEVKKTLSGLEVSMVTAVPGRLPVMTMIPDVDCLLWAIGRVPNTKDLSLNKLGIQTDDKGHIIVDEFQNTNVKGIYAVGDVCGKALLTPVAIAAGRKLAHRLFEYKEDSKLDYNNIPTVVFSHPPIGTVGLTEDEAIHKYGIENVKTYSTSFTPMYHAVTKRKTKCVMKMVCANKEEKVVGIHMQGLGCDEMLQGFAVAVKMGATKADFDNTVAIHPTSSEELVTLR

Experiment [2] addresses human glutathione reductase (hGR) (Homo sapiens, UniProt P00390). Briefly: hGR assay (NADPH-Glo). Type of experiment: biochemical. The note with it: read-out: hGR assay IC50; n=3.
Source text: as §1

For `O=C(CCN1CCCC1)c1ccc2ccccc2c1`, the values for the IC50 in experiment [1] and in experiment [2] were 23.1 µM and more than 85 µM, respectively.
For `O=C(O)c1ccc(NCCC(=O)c2cc3ccccc3o2)cc1`, in that order: 28.9 µM and more than 85 µM.
For `CN(C)CCC(=O)c1ccc2ccccc2c1`, in that order: 9.46 µM and 31 µM.
For `CCc1ccc(C(=O)CCN(C)C)cc1`, in that order: 4.33 µM and more than 85 µM.
Turning to `O=C(CCNc1ccc(C(=O)N2CCCCC2)cc1)c1cccc([N+](=O)[O-])c1`, the figures for the IC50 in experiment [1] and in experiment [2] were 28.9 µM and more than 85 µM, respectively.
For `CN(C)CCC(=O)c1ccc(NS(C)(=O)=O)cc1`, in that order: 31.3 µM and more than 85 µM.

Usually IC50 stands for the midpoint of a concentration-inhibition curve.

(Values after publication PMC6283646, “Identification and binding mode of a novel Leishmania Trypanothione reductase inhibitor from high throughput screening” (PLoS Neglected Tropical Diseases, 2018).)
